Data: PMC12714102, “Chemical Mechanism of Allosteric and Asymmetric Dark Reversion in a Bacterial Phytochrome Uncovered by Cryo-EM” (Journal of the American Chemical Society, 2025)

Target: the molecule itself
Assay: cryo-EM structure

B1: Pseudomonas aeruginosa bacteriophytochrome (PaBphP) (natural protein)
chain: MTSITPVTLANCEDEPIHVPGAIQPHGALVTLRADGMVLAASENIQALLGFVASPGSYLTQEQVGPEVLRMLEEGLTGNGPWSNSVETRIGEHLFDVIGHSYKEVFYLEFEIRTADTLSITSFTLNAQRIIAQVQLHNDTASLLSNVTDELRRMTGYDRVMAYRFRHDDSGEVVAESRREDLESYLGQRYPASDIPAQARRLYIQNPIRLIADVAYTPMRVFPALNPETNESFDLSYSVLRSVSPIHCEYLTNMGVRASMSISIVVGGKLWGLFSCHHMSPKLIPYPVRMSFQIFSQVCSAIVERLEQGRIAELLRVSTERRLALARRARDADDLFGALAHPDDGIAALIPCDGALVMLGGRTLSIRGDFERQAGNVLQRLQRDPERDIYHTDNWPQPSEDSPDGGDCCGVLAIRFHRQESGWIFWFRHEEVHRIRWGGKPEKLLTIGPSGPRLTPRGSFEAWEEVVRGHSTPWSETDLAIAEKLRLDLMELCLNHAAEVDRMRQRLIAVLGHDLRNPLQSISMAAALLSSSDTRTTELRQHISASSSRMERLVSQILDMSRLQSGIGLTVNPVDTDVSQLVRQIVCETDVAYPGLVIEIAIDPQVRAVVDPDRYAQVAANLLSNARHHGLPGRPVLVTLTRQGDEVCLSVLNETSGLSEAQLANLFEPFKRESADNQRNRNGLGIGLYISQAIAQAHQGRIDVDCRDDVITFCLRLPVRQAETGSSS
modifications: biliverdin chromophore (covalently bound bilin; attachment residue not given)
In the case of B1, the “stoichiometry N” value is reported as 2.
